Reference: publication PMC12400800, “Significantly enhancing human antibody affinity via deep learning and computational biology-guided single-point mutations” (Briefings in Bioinformatics, 2025)

B1: H:D102I (antibody, V domains shown)
VH: QVQLVESGAEVKKPGASVKVSCKASGYIFTSYDINWVRQATGQGLEWMGWMNPDSGDTGFAQKFQGRVTMTRNTSITTAYMELSSLTSEDTAVYYCATGNAICSGGSCYNWFDPWGQGTLVTVSS
VL: SSELTQDPAVSVALGQTVRITCQGDRLRSYYASWYQQKPGQAPVLVIYGKNNRPSGIPDRFSGSSSGNTASLTITGAQAEDEADYYCNSRDTSGYHLVFGGGTKLTVL
B2: H:D102F (antibody, V domains shown)
VH: B1 VH with I102F
VL: B1 VL
B3: 3L11-3 (3L11 L:G94N) (antibody, V domains shown)
VH: B1 VH with I102D
VL: B1 VL with G94N
notes: Human IgG1
B4: 3L11-5 (3L11 L:D25S) (antibody, V domains shown)
VH: B1 VH with I102D
VL: B1 VL with D25S
notes: Human IgG1
B5: 3L11-6 (3L11 H:S55N) (antibody, V domains shown)
VH: B1 VH with S55N, I102D
VL: B1 VL
notes: Human IgG1
B6: 3L11-1 (3L11 L:S93N) (antibody, V domains shown)
VH: B1 VH with I102D
VL: B1 VL with S93N
notes: Human IgG1
B7: 3L11-2 (3L11 L:S93Y) (antibody, V domains shown)
VH: B1 VH with I102D
VL: B1 VL with S93Y
notes: Human IgG1
B8: 3L11 human antibody (wild type) (antibody, V domains shown)
VH: B1 VH with I102D
VL: B1 VL
B9: 3L11-4 (3L11 L:H96N) (antibody, V domains shown)
VH: B1 VH with I102D
VL: B1 VL with H96N
notes: Human IgG1

Molecular target: T1, H7N9 HA with a T4 foldon trimerization domain (Influenza A virus H7N9, strain not …)
Assay: not given
Details: not given

Binder | binding result
B1 | binds
B2 | binds

Molecular target: T1, H7N9 HA with a T4 foldon trimerization …
Assay: BLI
Details: not given

Binder | Kd [nM] | koff [s⁻¹] | kon [M⁻¹ s⁻¹]
B3 | 6.37 | 0.000689 | 100000
B4 | 12.8 | 0.00141 | 108000
B5 | 2.93 | 0.000337 | 102000
B6 | 4.52 | 0.000514 | 102000
B7 | 4.95 | 0.000583 | 106000

Same assay, conditions: one partner purified

Binder | Kd [nM] | koff [s⁻¹] | kon [M⁻¹ s⁻¹]
B8 | 13.4 | 0.00138 | 101000
B9 | 11.1 | 0.00126 | 108000

Residue numbers refer to the chain shown, from its start. Names and notes keep the numbering of the source.
